Sequence variants of PSTVd loop 6 after infection

Source: Wu et al. 2024 (doi:10.1371/journal.ppat.1012142), supplementary data.

PSTVd intermediate strain, loop 6: wild type UGACCGCGAG, pool pattern UNNNCGNNNG; upper and lower strand joined, each 5' to 3', the first 5 letters being the upper strand, closing pairs included.

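A pool of all variants was put on leaves of three Nicotiana benthamiana plants. Samples came from the inoculated region at 5 days, the leaf margin at 10 and upper systemic leaves at 12.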

Values are reads per thousand in the sample; higher means more abundant, 0 means not found. Each site shows the three plants. "Pool" is the share in the plasmid pool used as inoculum, on the same scale. The inoculated region was read from the minus strand, the other sites from the plus strand. With 36,220-57,551 reads a sample, very low values are single reads. The authors trace changes outside the varied positions to PCR and sequencing errors or to mutation in the plant; presence does not show that a variant is infectious alone. For reference, wild type rose from 20.7 per thousand in the pool to 195, 198, 203 (inoculated region), 629, 591, 734 (leaf margin) and 942, 870, 868 (systemic leaves).

sequence,pool,inoculated region,leaf margin,systemic leaves
UUGACGGUUG,0.183,0.139 0.0359 0.0369,0 0 0,0 0 0
UUGACGUAAG,0.157,0.139 0.0539 0.0922,0 0 0.0232,0 0 0
UUGACGUACG,0.301,0.139 0.0180 0.0553,0 0 0,0 0 0
UUGACGUAGG,0.327,0.174 0.126 0.0738,0.0276 0 0,0 0 0
UUGACGUAUG,0.275,0.139 0.0898 0.111,0.469 0 0.0464,0 0 0
UUGACGUCAG,0.288,0.0521 0.0898 0.111,0 0 0,0 0 0
UUGACGUCCG,0.196,0.0869 0.0359 0.129,0.0276 0 0.0464,0 0 0
UUGACGUCGG,0.196,0.156 0.0898 0.129,0.0276 0 0.0232,0 0 0
UUGACGUCUG,0.379,0.0869 0.0359 0.0922,0 0 0.0232,0 0 0
UUGACGUGAG,0.183,0.782 0.629 0.535,0.166 0.101 0.0464,0 0 0
UUGACGUGCG,0.196,0.191 0.0539 0.0369,0 0 0,0 0 0
UUGACGUGGG,0.144,0.191 0.0719 0.0738,0.0276 0 0,0 0 0
UUGACGUGUG,0.301,0.174 0.0898 0.111,0 0 0,0 0 0
UUGACGUUAG,0.261,0.0521 0.126 0.0738,0.0276 0 0,0 0 0
UUGACGUUCG,0.235,0.0348 0.0719 0.0553,0.138 0 0,0 0 0
UUGACGUUGG,0.327,0.0869 0.162 0.111,0 0.0252 0.0232,0 0 0
UUGACGUUUG,0.379,0.0695 0.180 0.111,0.0276 0 0,0 0 0.0205
UUGACUAUGG,0.0131,0 0 0,0 0 0,0 0 0
UUGCAGCACG,0.0131,0 0 0,0 0 0,0 0 0
UUGCCAGCGG,0.0131,0 0 0,0 0 0,0 0 0
UUGCCGAAAG,0.209,0.139 0.108 0.111,0.0276 0 0.0464,0 0 0
UUGCCGAACG,0.575,0.122 0.0719 0.111,0.0276 0 0,0 0 0
UUGCCGAAGG,0.170,0.0869 0.0719 0.0369,0.0276 0 0,0 0 0
UUGCCGAAUG,0.314,0.0695 0.0898 0.0184,0 0 0.0232,0 0 0
UUGCCGACAG,0.235,0.0869 0.126 0.184,0 0 0.0232,0 0 0
UUGCCGACCG,0.235,0.174 0.108 0.111,0 0 0,0 0 0
UUGCCGACGG,0.314,0.122 0.108 0.0922,0 0 0.0232,0 0 0
UUGCCGACUG,0.248,0.0695 0.108 0.0738,0.0276 0 0,0 0 0
UUGCCGAGAG,0.340,0.851 0.557 0.719,0.138 0.177 0.162,0 0 0.0205
UUGCCGAGCG,0.261,0.122 0.0898 0.148,0 0 0,0 0 0
UUGCCGAGGG,0.405,0.209 0.162 0.0738,0 0 0.0232,0 0 0
UUGCCGAGUG,0.235,0.104 0.0359 0.129,0.0276 0 0,0.0180 0 0
UUGCCGAUAG,0.209,0.122 0.126 0.0738,0 0 0.0696,0 0 0
UUGCCGAUCG,0.275,0.0695 0.0719 0.0369,0.0276 0 0,0 0 0
UUGCCGAUGG,0.366,0.226 0.126 0.0369,0.0276 0.0252 0,0 0 0
UUGCCGAUUG,0.275,0.174 0.0180 0,0 0 0,0 0 0
UUGCCGCAAG,0.118,0.156 0.0898 0.129,0 0 0,0 0 0
UUGCCGCACG,0.288,0.0521 0.0898 0.0553,0 0 0.0696,0 0 0
UUGCCGCAGG,0.261,0.0695 0.108 0.0738,0.0276 0 0,0 0 0
UUGCCGCAUG,0.131,0.0869 0.0180 0.0922,0 0 0,0 0 0
UUGCCGCCAG,0.105,0.139 0.0359 0.0738,0 0 0,0 0 0
UUGCCGCCCG,0.288,0.156 0.0359 0.111,0 0.0252 0.0232,0 0 0
UUGCCGCCGG,0.170,0.0695 0.0539 0.0553,0.0552 0 0,0 0 0
UUGCCGCCUG,0.248,0.191 0.108 0.0922,0 0 0,0 0 0
UUGCCGCGAG,0.353,0.191 0.162 0.240,0.166 0.605 0.116,0.0539 0.141 0.0820
UUGCCGCGCG,0.261,0.678 0.593 0.553,0.0276 0.0504 0.0464,0.0180 0 0.0615
UUGCCGCGGG,0.235,0.0869 0.0898 0.0738,0 0 0,0 0 0
UUGCCGCGUG,0.235,0.156 0.0898 0.0553,0 0 0.0464,0 0 0
UUGCCGCGUU,0.0131,0 0 0,0 0 0,0 0 0
UUGCCGCUAG,0.157,0.0521 0.144 0.129,0 0 0.0232,0 0 0
UUGCCGCUCG,0.275,0.0521 0.0898 0.129,0.0552 0 0.0232,0 0 0
UUGCCGCUGG,0.144,0.122 0 0.148,0 0 0,0 0 0
UUGCCGCUUG,0.131,0.191 0.0719 0.0553,0.0276 0 0,0 0 0
UUGCCGGAAG,0.209,0.0695 0.126 0.0369,0.0276 0 0,0 0 0

Extract of 4 entries:

sequence,pool,inoculated region,leaf margin,systemic leaves
UUGCCGAGUG,0.235,0.104 0.0359 0.129,0.0276 0 0,0.0180 0 0
UUGCCGCCUG,0.248,0.191 0.108 0.0922,0 0 0,0 0 0
UUGCCGCAAG,0.118,0.156 0.0898 0.129,0 0 0,0 0 0
UUGACGUCAG,0.288,0.0521 0.0898 0.111,0 0 0,0 0 0